Anti-infective test results gathered from many reports (values: NIAID ChemDB through PubChem).

Common to all: growth or infection tests; organism: HIV-1; method: cytopathic effect; read-out: EC50

ECn is the concentration giving n% inhibition of infection, replication or growth. Conditions beyond the fields shown may differ between rows. An empty or dashed field is not shown. a–b is a range or a potency band.

smiles | strain or isolate | mutations | cell line | value
Cc1nc(C(=O)NCCCN=C(N)N)cc2c1[nH]c1ccccc12 | IIIB |  | MT-4 | ≥50 µM
O=C1c2ccccc2N(COCc2ccccc2)S(=O)(=O)N1COCc1ccccc1 | IIIB |  | MT-4 | >8 µM
C[C@]1(O)CCN(Cc2ccccc2)C[C@@H]1O | BRU |  | CEM + CEM-SS | >100 µg/mL
COc1cc(Cc2cnc(/N=C3\C(=O)N(CN4CCCC4)c4ccc(C)cc43)nc2N)cc(OC)c1OC |  |  | CEM | >122 µM
Cc1cc(C)c(CS(=O)c2cccc[n+]2[O-])c(C)c1 | RF |  | CEM | 12 µg/mL
CCn1cc(C(=O)O)c(=O)c2c(F)c(N3CCN(CN4C(=O)/C(=N\c5ncc(Cc6cc(OC)c(OC)c(OC)c6)c(N)n5)c5cc(C)ccc54)C(C)C3)c(F)cc21 |  |  | MT-4 | 28.4 µM
COc1cccc(OC)c1C1SCC(=O)N1c1cc(C)ccn1 | IIIB |  | MT-4 | 3.33 µM
O=C1c2ccccc2N(Cc2ccccc2)S(=O)(=O)N1Cc1ccc(Cl)cc1 | IIIB |  | MT-4 | 23.2–46.8 µM
CC1=C/C(=C\[C@H](C)[C@@]23OC(=O)C[C@]2(C)[C@@]2(C)C[C@]4(O)CC56OC(=O)C[C@@]5(C)O[C@@](C)(CO)[C@]6(C)CC[C@]4(C)[C@@]2(C)O3)OC1=O |  |  |  | >100 µg/mL
COc1cccc(F)c1C1SCC(=O)N1c1cc(C)cc(C)n1 | IIIB |  | MT-4 | 0.202 µM
O=C1c2ccccc2N(Cc2ccccc2Cl)S(=O)(=O)N1COCc1ccccc1 | IIIB |  | MT-4 | 17.9–32.1 µM
COc1cccc(F)c1C1SCC(=O)N1c1nccc(C)n1 | IIIB |  | MT-4 | 0.532 µM
COP(=O)(c1cc(C)cc(CCC#N)c1)c1c(C(N)=O)[nH]c2ccc(Cl)cc12 | BH10 | K103N/Y181C | MT-4 | 0.0066 µM
Nc1ncnc2c1ncn2[C@H]1CO[C@@H](CCP(=O)(O)O)O1 |  |  | MT-4 | 47 µg/mL
N#Cc1ccc(Nc2nccc(C(Br)c3ccccc3)n2)cc1 | IIIB | K103N + Y181C | MT-4 | 69 µM
O=C(Cc1cccc(O)c1)c1nc2ccccc2[nH]1 | IIIB |  | MT-4 | 27 µM
CCCN1CC[C@H](O)[C@@H](O)C1 | BRU |  | CEM + CEM-SS | >100 µg/mL
Cc1cc(C)nc(N2C(=O)CSC2c2c(C(F)(F)F)ccc(Cl)c2F)c1 | IIIB |  | MT-4 | 5.88 µM
COc1cc(Cc2cnc(/N=C3\C(=O)N(CN4CCNCC4)c4ccc(C)cc43)nc2N)cc(OC)c1OC |  |  | MT-4 | >94.2 µM
N#Cc1ccc(Nc2nccc(C(Cl)c3cccc4ccccc34)n2)cc1 | IIIB | K103N + Y181C | MT-4 | 11.3 µM
O=c1ccn([C@H]2CCC[C@@H]2CO)c(=O)[nH]1 |  |  | CEM | >100 µg/mL
Cc1cccc(C)c1C1SCC(=O)N1c1cccc(Br)n1 | IIIB |  | MT-4 | 6.33 µM
NCCCNC(=O)c1cc2c(cn1)[nH]c1ccccc12 | IIIB |  | MT-4 | >1000 µM
O=S1(=O)N=C(OCc2ccccc2)c2ccccc2N1Cc1ccccc1 | IIIB |  | MT-4 | 15 µM
CC(C)[C@H](NC(=O)OCc1ccccc1)C(=O)N[C@@H](Cc1ccccc1)[C@@H](O)[C@@H](NCc1ccc(Br)cc1)C(=O)N[C@H](C(=O)NCc1nc2ccccc2[nH]1)C(C)C | IIIB |  | MT-4 | 0.11 µM
C[C@]1(O)CN(Cc2ccccc2)CC[C@@H]1O | BRU |  | CEM + CEM-SS | >100 µg/mL
COc1cccc(OC)c1C1SCC(=O)N1c1cccc(Br)n1 | IIIB |  | MT-4 | 0.045 µM
O=C(Oc1ccc2c(c1OC(=O)c1ccccc1)C(=O)c1ccccc1C2=O)c1ccccc1 |  |  | MT-2 | >100 µM
CC(C)CCC[C@@H](C)[C@H]1CC[C@H]2[C@@H]3CC[C@H]4C[C@@H](CCC=C(c5cc(Cl)c(O)c(C(=O)O)c5)c5cc(Cl)c(O)c(C(=O)O)c5)CC[C@]4(C)[C@H]3CC[C@]12C | clinical isolate A012 AZT-resistant |  | MT-2 | 10 µM
Cc1ccc(C(Br)c2ccnc(Nc3ccc(C#N)cc3)n2)cc1 | IIIB | K103N + Y181C | MT-4 | 31.5 µM
CC(C)[C@H](NC(=O)OCc1ccccc1)C(=O)N[C@@H](Cc1ccccc1)[C@@H](O)[C@@H](NCc1ccccc1)C(=O)N[C@H](C(=O)NCc1nc2ccccc2[nH]1)C(C)C | IIIB |  | MT-4 | 0.14 µM
Cc1ccc(C)c(CS(=O)c2ccc(Cl)c[n+]2[O-])c1 |  | RT-K103N | CEM | 9 µg/mL
CC(=O)Oc1c(OCC(=O)c2ccc(Br)cc2)ccc2c1C(=O)c1ccccc1C2=O |  |  | MT-2 | >100 µM
COc1cc(Cc2cnc(/N=C3\C(=O)N(CN4CCN(c5ccccn5)CC4)c4ccc(C)cc43)nc2N)cc(OC)c1OC |  |  | MT-4 | >119.6 µM
COc1cccc(F)c1C1SCC(=O)N1c1cc(C)ccn1 | IIIB |  | MT-4 | 0.879 µM
Cc1ccc(C)c(C(C)S(=O)(=O)c2c(C)ccc[n+]2[O-])c1 | IIIB |  | CEM | 0.1 µg/mL
Nc1nc(NC2CC2)c2ncn([C@H]3C=C[C@@H](CO)C3)c2n1 | IIIB |  | MT-4 + CEM | 5.9 µM
O[C@H]1CN(Cc2ccccc2)CC[C@@]1(O)c1ccccc1 | BRU |  | CEM + CEM-SS | 160 µg/mL
O=c1[nH]c(=O)n(C[C@H]2CCC[C@H]2CO)cc1I |  |  | CEM | >100 µg/mL
Cc1cn([C@H]2CC[C@@H](CO)O2)c(=O)[nH]c1=S |  |  | CEM | 35 µM
COc1cccc(N2CCN(CN3C(=O)/C(=N\c4ncc(Cc5cc(OC)c(OC)c(OC)c5)c(N)n4)c4cc(C)ccc43)CC2)c1 |  |  | MT-4 | >32.1 µM
CC1(C)[C@@H](O[C@H]2O[C@H](C(=O)O)[C@@H](O)[C@H](O)[C@H]2O[C@@H]2O[C@H](C(=O)O)[C@@H](O)[C@H](O)[C@H]2O)CC[C@]2(C)[C@H]3C(=O)C=C4[C@@H]5C[C@@](C)(C(=O)O)CC[C@]5(C)CC[C@@]4(C)[C@]3(C)CC[C@@H]12 |  |  | MT-4 | 150 µM
CC1(C)[C@@H](O[C@H]2O[C@H](C(=O)O)[C@@H](O)[C@H](O)[C@H]2O[C@@H]2O[C@H](C(=O)O)[C@@H](O)[C@H](O)[C@H]2O)CC[C@]2(C)[C@H]3C(=O)C=C4[C@@H]5C[C@@](C)(C(=O)O)CC[C@]5(C)CC[C@@]4(C)[C@]3(C)CC[C@@H]12 | IIIB |  | MT-4 | <150 µM
O=c1[nH]c(=O)n([C@H]2CCC[C@@H]2CO)cc1I |  |  | CEM | >100 µg/mL

Repeating the final 4 entries:

smiles	strain or isolate	mutations	cell line	value
COc1cccc(N2CCN(CN3C(=O)/C(=N\c4ncc(Cc5cc(OC)c(OC)c(OC)c5)c(N)n4)c4cc(C)ccc43)CC2)c1			MT-4	>32.1 µM
CC1(C)[C@@H](O[C@H]2O[C@H](C(=O)O)[C@@H](O)[C@H](O)[C@H]2O[C@@H]2O[C@H](C(=O)O)[C@@H](O)[C@H](O)[C@H]2O)CC[C@]2(C)[C@H]3C(=O)C=C4[C@@H]5C[C@@](C)(C(=O)O)CC[C@]5(C)CC[C@@]4(C)[C@]3(C)CC[C@@H]12			MT-4	150 µM
CC1(C)[C@@H](O[C@H]2O[C@H](C(=O)O)[C@@H](O)[C@H](O)[C@H]2O[C@@H]2O[C@H](C(=O)O)[C@@H](O)[C@H](O)[C@H]2O)CC[C@]2(C)[C@H]3C(=O)C=C4[C@@H]5C[C@@](C)(C(=O)O)CC[C@]5(C)CC[C@@]4(C)[C@]3(C)CC[C@@H]12	IIIB		MT-4	<150 µM
O=c1[nH]c(=O)n([C@H]2CCC[C@@H]2CO)cc1I			CEM	>100 µg/mL